A mixed list of measured activities; the numbers were collected in NIAID ChemDB.

Common to all: growth or infection tests; species: Mycobacterium avium; read-out: inhibition

Conditions beyond the fields shown may differ between rows.

structure,strain,method,dose,value
CO[C@H]1/C=C/O[C@@]2(C)Oc3c(C)c(O)c4c(O)c(c5c(c4c3C2=O)NC2(CCN(CC(C)C)CC2)N=5)=NC(=O)/C(C)=C\C=C\[C@H](C)[C@H](O)[C@@H](C)[C@@H](O)[C@@H](C)[C@H](O)[C@@H]1C,1581,colony count,0.4 µg/mL,>99%
Cc1cn([C@H]2C[C@H](N)[C@@H](CO)O2)c(=O)[nH]c1=O,ATCC 25291,resazurin,100 µg/mL,0%
O=C1NC(Nc2cccc(Cl)c2)=N/C1=C\c1ccccc1Cl,,,12.5 µg/mL,53%
Cc1cn2c(C(=O)NCc3ccc(N4CCC5(CCN(c6ccc(C(F)(F)F)cc6)CC5)CC4)c(F)c3)c(C)nc2s1,,fluorescence,0.029 µM,85%
CO[C@H]1/C=C/O[C@@]2(C)Oc3c(C)c(O)c4c(c3C2O)C2=NC3(CC[N+]([O-])(CC(C)C)CC3)N(C(C)=O)C2=C(NC(=O)/C(C)=C\C=C\[C@H](C)[C@H](O)[C@@H](C)[C@@H](O)[C@@H](C)[C@H](OC(C)=O)[C@@H]1C)C4=O,1581,colony count,0.4 µg/mL,53%
O=c1[nH]c(=O)n([C@H]2C[C@H](O)[C@@H](CO)O2)cc1CCO,ATCC 25291,,50 µg/mL,0%
N#C/C(=C\c1ccccc1)n1nnc2ccccc21,,,12.5 µg/mL,93%
Cc1ccn2nc(C)c(C(=O)NCc3ccc(N4CCN(c5ccc(OC(F)(F)F)cc5)[C@H](C)C4)c(F)c3)c2c1.Cl,,fluorescence,0.1 µM,85%
O=c1[nH]c(=O)n([C@@H]2O[C@H](CO)[C@@H](O)[C@H]2F)cc1I,ATCC 25291,,50 µg/mL,0%
CC(=O)/C(N=Nc1ccc(C(=O)N/N=C/c2ccc([N+](=O)[O-])o2)cc1)=C(/O)c1ccccc1,,,12.5 µg/mL,45%
CC(=O)OC[C@@H]1CC[C@H](n2ccc(=O)[nH]c2=O)O1,ATCC 25291,,50 µg/mL,0%
CCc1nc2ccc(C#N)cn2c1C(=O)NCc1ccc(N2CCN(c3ccc(OC(F)(F)F)cc3)[C@@H](C)C2)c(F)c1,,fluorescence,0.11 µM,85%
O=C1NC(Nc2ccc(Cl)cc2)=N/C1=C\c1ccccc1Cl,,,12.5 µg/mL,71%
Cc1cn([C@H]2C[C@H](F)[C@@H](CO)O2)c(=O)[nH]c1=O,ATCC 25291,,50 µg/mL,0%
Cc1ccc2nc(C)c(C(=O)NCc3ccc(-c4ccc(C(F)(F)F)cc4)cc3)n2c1,,fluorescence,0.0022 µM,85%
O=c1ccn([C@H]2CC[C@@H](CO)O2)c(=O)[nH]1,ATCC 25291,,50 µg/mL,0%
[N-]=[N+]=N[C@H]1C[C@H](n2cc(F)c(=O)[nH]c2=O)O[C@@H]1CO,ATCC 25291,resazurin,100 µg/mL,0%
O=c1[nH]c(=O)n([C@H]2C[C@H](O)[C@@H](CO)O2)cc1F,ATCC 25291,,50 µg/mL,80%
CO[C@H]1/C=C/O[C@@]2(C)Oc3c(C)c(O)c4c(c3C2O)C2=NC3(CCN(CC(C)C)CC3)N(C(C)=O)C2=C(NC(=O)/C(C)=C\C=C\[C@H](C)[C@H](O)[C@@H](C)[C@@H](O)[C@@H](C)[C@H](OC(C)=O)[C@@H]1C)C4=O,1581,colony count,0.4 µg/mL,>99%
CC[C@H]1OC(=O)[C@H](C)[C@@H](O[C@H]2C[C@@](C)(OC)[C@@H](O)[C@H](C)O2)[C@H](C)[C@@H](O[C@@H]2O[C@H](C)C[C@H](N(C)C)[C@H]2O)[C@](C)(OC)C[C@@H](C)C(=O)[C@H](C)[C@@H](O)[C@]1(C)O,,,6.25 µg/mL,98%
O=c1[nH]c(=O)n([C@@H]2O[C@H](CO)[C@@H](O)[C@H]2O)cc1O,ATCC 25291,,50 µg/mL,0%
CO[C@H]1/C=C/O[C@@]2(C)Oc3c(C)c(O)c4c(O)c(c5c(c4c3C2=O)NC2(CC[N+]([O-])(CC(C)C)CC2)N=5)=NC(=O)/C(C)=C\C=C\[C@H](C)[C@H](O)[C@@H](C)[C@@H](O)[C@@H](C)[C@H](O)[C@@H]1C,1581,colony count,0.4 µg/mL,0%
O=C1NC(=NCc2ccccc2)N/C1=C\c1ccc(Cl)cc1,,,12.5 µg/mL,42%
Cc1cc2nc(C)c(C(=O)NCc3ccc(N4CCN(c5ccc(OC(F)(F)F)cc5)[C@@H](C)C4)c(F)c3)n2cc1F,,fluorescence,0.11 µM,85%
[N-]=[N+]=N[C@H]1C[C@H](n2cc(Cl)c(=O)[nH]c2=O)O[C@@H]1CO,ATCC 25291,resazurin,100 µg/mL,0%
Cc1cc2nc(C)c(C(=O)NCc3ccc(C4CCN(c5ccc(OC(F)(F)F)cc5)CC4)c(F)c3)n2cc1Cl,,fluorescence,0.057 µM,85%
CO[C@H]1O[C@@H](n2ccc(=O)[nH]c2=O)C[C@@H]1N=[N+]=[N-],ATCC 25291,,50 µg/mL,0%

The last 4 rows once more:

structure	strain	method	dose	value
Cc1cc2nc(C)c(C(=O)NCc3ccc(N4CCN(c5ccc(OC(F)(F)F)cc5)[C@@H](C)C4)c(F)c3)n2cc1F		fluorescence	0.11 µM	85%
[N-]=[N+]=N[C@H]1C[C@H](n2cc(Cl)c(=O)[nH]c2=O)O[C@@H]1CO	ATCC 25291	resazurin	100 µg/mL	0%
Cc1cc2nc(C)c(C(=O)NCc3ccc(C4CCN(c5ccc(OC(F)(F)F)cc5)CC4)c(F)c3)n2cc1Cl		fluorescence	0.057 µM	85%
CO[C@H]1O[C@@H](n2ccc(=O)[nH]c2=O)C[C@@H]1N=[N+]=[N-]	ATCC 25291		50 µg/mL	0%

An empty or dashed field is not shown. Inhibition is in % at the dose shown (toxicity tests: loss of growth or viability).